{"source": "PubChem BioAssay AID504761 (Drosophila RNAi Screening Center, 2011)", "aim": "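Insect host genes that dengue virus relies on to spread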 (primary screen)", "cells": "D.Mel-2 cells from Drosophila", "reagent": "long dsRNA against Drosophila genes", "conditions": "infection with dengue virus type 2; dose and infection time not stated", "measured": "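Per well on two replicate plates, imaging gave the percent of cells positive for viral envelope protein, ranked by infection, and a nuclear count of cells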", "scale": "infection score: higher = more virus-infected cells; cell count: higher = more cells in the well", "call rule": "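Very low infection ranking in both replicate wells (chance probability at most 0.065), then a retest showing infection dropped 1.5-fold or more at p below 0.05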", "calls": "active = confirmed: knock-down lowers infection; inactive = not picked or not confirmed", "note": "In all, the deposit lists about 22,000 reagents; this is a random part of those that have a named target and a result. In the full data, 116 (0.52%) are marked active. 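Calls depend on retest data that are not deposited; infection was ranked per plate without normalising between plates; the unit of the infection score is not given.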 Raw values vary from plate to plate and are shown uncorrected. Unmarked entries are inactive. Not given: the amount of reagent, the time to read-out."}
{"Gene": "Prp4k", "DRSC id": "DRSC08144", "infection score, replicate 1": 11.7, "infection score, replicate 2": 8.18, "cell count, replicate 1": 5674, "cell count, replicate 2": 6024}
{"Gene": "Prp4k", "DRSC id": "DRSC27510", "infection score, replicate 1": 10.6, "infection score, replicate 2": 13.7, "cell count, replicate 1": 6272, "cell count, replicate 2": 6392}
{"Gene": "MED22", "DRSC id": "DRSC18175", "infection score, replicate 2": 8.18, "cell count, replicate 1": 288, "cell count, replicate 2": 6196}
{"Gene": "CG15130", "DRSC id": "DRSC02430", "infection score, replicate 1": 2.02, "cell count, replicate 1": 6969, "cell count, replicate 2": 642}
{"Gene": "CG17121", "DRSC id": "DRSC15176", "infection score, replicate 1": 5.63, "infection score, replicate 2": 2.35, "cell count, replicate 1": 6234, "cell count, replicate 2": 6429}
{"Gene": "CG31229", "DRSC id": "DRSC13309", "infection score, replicate 1": 7.75, "infection score, replicate 2": 7.41, "cell count, replicate 1": 5537, "cell count, replicate 2": 4387}
{"Gene": "CG3163", "DRSC id": "DRSC04341", "infection score, replicate 1": 26.5, "infection score, replicate 2": 34.5, "cell count, replicate 1": 5733, "cell count, replicate 2": 5451}
{"Gene": "CG3163", "DRSC id": "DRSC28242", "infection score, replicate 2": 18.8, "cell count, replicate 1": 385, "cell count, replicate 2": 6130}

Next part; the last 2 above are carried over.
{"Gene": "CG3163", "DRSC id": "DRSC04341", "infection score, replicate 1": 26.5, "infection score, replicate 2": 34.5, "cell count, replicate 1": 5733, "cell count, replicate 2": 5451}
{"Gene": "CG3163", "DRSC id": "DRSC28242", "infection score, replicate 2": 18.8, "cell count, replicate 1": 385, "cell count, replicate 2": 6130}
{"Gene": "l(3)psg2", "DRSC id": "DRSC10484", "infection score, replicate 1": 4.22, "infection score, replicate 2": 8.35, "cell count, replicate 1": 6067, "cell count, replicate 2": 6036}
{"Gene": "l(3)psg2", "DRSC id": "DRSC24075", "infection score, replicate 1": 7.86, "infection score, replicate 2": 3.31, "cell count, replicate 1": 5799, "cell count, replicate 2": 6009}
{"Gene": "Prp31", "DRSC id": "DRSC10735", "cell count, replicate 1": 119, "cell count, replicate 2": 514}
{"Gene": "sni", "DRSC id": "DRSC17770", "infection score, replicate 1": 2.34, "infection score, replicate 2": 1.17, "cell count, replicate 1": 6068, "cell count, replicate 2": 6220}
{"Gene": "sni", "DRSC id": "DRSC25897", "infection score, replicate 1": 1.52, "infection score, replicate 2": 4.57, "cell count, replicate 1": 6442, "cell count, replicate 2": 6543}
{"Gene": "CG30039", "DRSC id": "DRSC21794", "infection score, replicate 1": 6.59, "infection score, replicate 2": 5.29, "cell count, replicate 1": 6839, "cell count, replicate 2": 6311}
{"Gene": "CG30039", "DRSC id": "DRSC29391", "cell count, replicate 1": 399, "cell count, replicate 2": 401}
